US20250115654A1 (FUJIAN SHENGDI PHARMACEUTICAL CO., LTD., priority 2021, published 2025)

Test: general procedure: Fmoc solid-phase peptide synthesis; Rink-amide MBHA resin (0.48 mMole/g); HCTU / 4-methylmorpholine
Conditions: whole synthesis

Substance | isolated yield
H-YAibEGTFTSDYSIYK(OEG-OEG-yGlu-C20-OH)EKIAAQEFVNWLLAGGPSSGAPPPS-NH2 | 18%

Same assay, conditions: whole synthesis, analytical HPLC combined with UHPLC/mass spectrometry

Substance | final HPLC purity
H-YAibEGTFTSDYSIYLEK(OEG-OEG-yGlu-C20-OH)IAAQEFINWLLAGGPSSGAPPPS-NH2 | 92.18%
H-YAibEGTFTSDYSIYLEK(OEG-OEG-yGlu-C20-OH)IAAQEFVNWLLAGGPSSGAPPPS-NH2 | 96.30%
H-YAibEGTFTSDYSIYLEK(OEG-OEG-yGlu-C20-OH)IAAQEFVNWLIAGGPSSGAPPPS-NH2 | 93.28%
H-YAibEGTFTSDYSIYLEK(OEG-OEG-yGlu-C20-OH)IAAQEFINWLIAGGPSSGAPPPS-NH2 | 94.56%
H-YAibEGTFTSDYSIYK(OEG-OEG-yGlu-C20-OH)EKIAAQEFVNWLLAGGPSSGAPPPS-NH2 | 92.81%
